Experimental data published in patent US20220251163A1 (Sinopep-Allsino Biopharmaceutical Co., Ltd., priority 2019, published 2022).

Assay: general procedure: Fmoc solid-phase peptide synthesis; Fmoc-Rink Amide AM Resin (substitution degree 0.35 mmol/g)
Conditions: whole synthesis, 214 nm, scale of the general procedure 10 g resin

In the case of “YVEGTFTSDYSIVLDKIAQK(HOOC-(CH2)16-CO-γ-Glu-AEEA-AEEA)AFVQWLIAGGPSSGAPPPS-NH2”, the “final HPLC purity” value is reported as “larger than 98.0%”.
